# In publication PMC10652121, “The mutations on the envelope glycoprotein D contribute to the enhanced neurotropism of the pseudorabies virus variant” (2023):
# How the values were obtained:
# [1] = target: TJ-gB (envelope glycoprotein B of the PRV TJ strain, ectodomain residues 59-756) (pseudorabies virus, TJ strain)
# [2] = target: SC-gB (envelope glycoprotein B of the PRV SC strain, ectodomain residues 59-756) (pseudorabies virus, SC strain)
substance,measurement,setting,value
"murine PILRα (paired immunoglobulin-like type 2 receptor alpha), ectodomain",Kd,[1],94 nM
same,Kd,[2],189 nM
